From patent US20260034194A1, “PHARMACEUTICAL COMPOSITIONS AND METHODS OF TREATING PSP” (priority 2022, published 2026)

Assay type: binding
Details: ITC, STX, 25° C.

Row | Molecule | N (sites)
1 | NpSxph: Nanorana parkeri (High Himalaya frog) saxiphilin, SEQ ID NO: 2 (protein, listed as Nanorana parkeri) MALTFHTALYFTIVGLSFAASDARHVQWCTISHLEQKKCNDLVGSCNVPDITLACVYRSSTENCMAAIKDGQADAMFLDSGDVYKASLDHYNLKPIIAEPYSLHRELTKCLKHRQESLGGDKMVKGRYIPQCDEKGNYHPVQCHASTGYCWCVNANGEKIEGTNTTPVQTPPTCPSQVLTKCLKERQEALGGKRIAIGRYIPQCDEQGNYRPMQCHGSTGYCWCVNAIGEKIEGTNTPPGNTQPTCQSHDWDTCHYAVAVVKNSSTFQFGQLKGKRSCHSGLSKTDGWNAPVNVFVEKKLLPWDGLAKGSIERAVSKFFSASCIPGATETNLCKQCIGEEEKKCKSSHDEPYYGDHGAFRCLQEDKGDVAFLKNTALPDEHSGVYELLCPDNTRKPLNKYKECNLGKVPADAVVTRKAGDKTKDINDFLLEAQKKKCKLFGSPHGKDLMFDDSTTHLAPLPSEIDAFFFLGVKWYNAMKALTEDVKLPSKNKVRWCTINKPEMMKCKDWAAVSGGAIACTEASCPEHCVKQILKGEADAVTLDVQYMYMALMCGLLPAVEEYPNKDDFHPCQIPGSTIKDFGTKRAVALVKKSNKDIKWNNLKGKKSCHTHVGDIPGWVIPAGLISNQNDNIDIESFFGESCAPGSDTNSKLCKLCIGDPENPKASTRCSLSDKEAYYGNEGAFRCLVEKGDVAFVPHTVVFANTDGKNPAEWAKDLKSEDFEILCLDGSRAPVTNYRGCNLSGLPPRAIVTREESVSDVVRILINQQSLYGRNGFEKDMFQMFSSAKGQNLLFNDETQCLIEFDRQPKDIMEDYFGVRYYTAVYSASRSAVPSELIPACTFKHC | 0.92 ± 0.02
2 | RcSxph: Rana (Lithobates) catesbeianus (American bullfrog) saxiphilin, SEQ ID NO: 1 (protein) MAPTFQTALFFTIISLSFAAPNAKQVRWCAISDLEQKKCNDLVGSCNVPDITLVCVLRSSTEDCMTAIKDGQADAMFLDSGEVYEASKDPYNLKPIIAEPYSSNRDLQKCLKERQQALAKKMIGHYIPQCDEKGNYQPQQCHGSTGHCWCVNAMGEKISGTNTPPGQTRATCERHELPKCLKERQVALGGDEKVLGRFVPQCDEKGNYEPQQFHGSTGYSWCVNAIGEEIAGTKTPPGKIPATCQKHDLVTTCHYAVAMVKKSSAFQFNQLKGKRSCHSGVSKTDGWKALVTVLVEKKLLSWDGPAKESIQRAMSKFFSVSCIPGATQTNLCKQCKGEEGKNCKNSHDEPYYGNYGAFRCLKEDMGDVAFLRSTALSDEHSEVYELLCPDNTRKPLNKYKECNLGTVPAGTVVTRKISDKTEDINNFLMEAQKRQCKLFSSAHGKDLMFDDSTLQLALLSSEVDAFLYLGVKLFHAMKALTGDAHLPSKNKVRWCTINKLEKMKCDDWSAVSGGAIACTEASCPKGCVKQILKGEADAVKLEVQYMYEALMCGLLPAVEEYHNKDDFGPCKTPGSPYTDFGTLRAVALVKKSNKDINWNNIKGKKSCHTGVGDIAGWVIPVSLIRRQNDNSDIDSFFGESCAPGSDTKSNLCKLCIGDPKNSAANTKCSLSDKEAYYGNQGAFRCLVEKGDVAFVPHTVVFENTDGKNPAVWAKNLKSEDFELLCLDGSRAPVSNYKSCKLSGIPPPAIVTREESISDVVRIVANQQSLYGRKGFEKDMFQLFSSNKGNNLLFNDNTQCLITFDRQPKDIMEDYFGKPYYTTVYGASRSAMSSELISACTIKHC | 1.02 ± 0.01
